A mixed list of measured activities; the numbers were collected in NIAID ChemDB.

Shared fields: whole-cell or culture tests; species: Mycobacterium tuberculosis

Rows are shuffled and stem from different studies. A number after MIC or MFC names an inhibition level or a share of isolates. Inhibition is in % at the dose shown (toxicity tests: loss of growth or viability). MIC bound: limit read from a one-dose screen. An empty or dashed field is not shown. a–b is a range or a potency band. ECn is the concentration giving n% inhibition of infection, replication or growth.

| smiles | cells | read by | tested at | strain or isolate | endpoint | result |
|---|---|---|---|---|---|---|
| Cc1[nH]nc(C(=O)N/N=C/c2cccs2)c1N=NN(C)C | VERO | BACTEC | - | H37Rv | MIC | 1.6 µg/mL |
| COc1ccc(CNCCNCC23CC4CC(CC(C4)C2)C3)cc1OC | - | - | - | - | MIC | 50 µM |
| COc1ccc(-c2nnc(SCC3(c4ccc(Cl)cc4)OCCO3)o2)cc1 | - | BACTEC | 6.25 µg/mL | H37Rv | inhibition | 15% |
| O=C1NC(NNC(=O)c2ccncc2)=N/C1=C\c1cccc(Cl)c1 | - | - | - | Ciprofloxacin-resistant | MIC | ≤0.39 µg/mL |
| CCCCOc1cccc(NC(=O)OCC[NH+]2CCCC2)c1 | - | - | - | My 331/88 | MIC | 125 µM |
| c1ccc(Sc2nnc(N3CCN(c4nc(N5CCN(c6ccccc6)CC5)c5ccccc5n4)CC3)o2)cc1 | - | BACTEC / fluorescence | - | H37Rv | MIC | >6.25 µg/mL |
| C=CCSCC1Nc2cc(Cl)c(S(N)(=O)=O)cc2S(=O)(=O)N1C | - | resazurin | 6.25 µg/mL | H37Rv | inhibition | 10% |
| N#Cc1ccc(Sc2nnc(N3CCN(c4nc(N5CCN(c6ccccc6)CC5)c5ccccc5n4)CC3)o2)cc1 | - | BACTEC / fluorescence | - | H37Rv | MIC | >6.25 µg/mL |
| O=C1c2cc(F)ccc2-n2c1nc1ccc(Cl)cc1c2=O | - | - | - | H37Rv | MIC | <1 µg/mL |
| Cc1ccc(Sc2nnc(N3CCN(c4nc(N5CCN(c6ccccc6)CC5)c5ccccc5n4)CC3)o2)cc1 | - | BACTEC / fluorescence | 6.25 µg/mL | H37Rv | inhibition | 0% |
| COc1ccc2c(c1O)-c1cc(O)cc3c1C(C2)N(C)CC3.Cl | - | BACTEC | - | H37Rv | MIC bound | >12.8 µg/mL |
| O=C(O)c1cn(-c2ccc(F)cc2F)c2cc(N3CCN(C(=O)C4COc5ccccc5O4)CC3)c(F)cc2c1=O | - | - | - | ATCC35801 | MIC | 5.53 µM |
| COC1CC2CCC(C)C(O)(O2)C(=O)C(=O)N2CCCCC2C(=O)OC(C(C)CC2CCC(O)C(OC)C2)CC(=O)C(C)C=C(C)C(OC(=O)CN(C)C)C(OC)C(=O)C(C)CC(C)\C=C/C=C\C=C/1C | - | BACTEC | - | H37Rv | MIC bound | >12.5 µg/mL |
| O=C1NC(NNC(=O)c2ccncc2)=N/C1=C\c1ccc(Cl)cc1 | VERO | resazurin | - | H37Rv | MIC | 3.13 µg/mL |
| O=C(O)c1cn2c(n1)CN(c1cc3c(cc1[N+](=O)[O-])c(=O)c(C(=O)O)cn3-c1ccc(F)cc1F)CC2 | - | - | - | ATCC35801 | MIC | 12.9 µM |
| S=C(S)NN1CCCC1 | - | - | - | KM-R | MIC | 0.8 µg/mL |
| O=C1NC(NNC(=O)c2ccncc2)=N/C1=C\c1ccccc1Cl | - | - | - | Capreomycin-resistant | MIC | ≤1.56 µg/mL |
| NC[C@@H]1O[C@H](O[C@H]2[C@@H](O)[C@H](O[C@@H]3[C@@H](O)[C@H](N)C[C@H](N)[C@H]3O[C@H]3O[C@H](CO)[C@@H](O)C[C@H]3N)O[C@@H]2CO)[C@H](N)[C@@H](O)[C@@H]1O[C@H]1O[C@H](CO)[C@@H](O)[C@H](O)[C@@H]1O | - | - | - | Aoyama B (streptomycin-resistant) | EC50 | 25–50 µg/mL |
| Cc1ccc2nc(SCc3ccc(Br)cc3)[nH]c2c1 | - | - | - | MY 332/88 | MIC | 32 µM |
| CCCOC(=O)/C=C/C(=O)N1CC(C)N(C(=O)/C=C/C(=O)OCCC)CC1C | - | BACTEC | - | H37Rv | MIC | ≥12.5 µg/mL |
| CCCCOc1ccc(NC(=O)OCC[NH+]2CCCC2)cc1 | - | - | - | My 331/88 | MIC | 250 µM |
| CC(NCCNC[C@@H]1CC[C@H]2C[C@@H]1C2(C)C)C12CC3CC(CC(C3)C1)C2 | - | - | - | - | MIC | 50 µM |
| Cc1cccc2c(=O)n3c(nc12)C(=O)c1ccccc1-3 | - | - | - | MDR 10038 | MIC | 5 µg/mL |
| COc1ccccc1NNC(=O)N1CCN(c2nc(N3CCN(c4ccccc4)CC3)c3ccccc3n2)CC1 | - | BACTEC / fluorescence | 6.25 µg/mL | H37Rv | inhibition | 0% |
| Cc1cc(C)c2c(=O)n(CO)sc2n1 | - | - | 12.5 µg/mL | H37Rv | inhibition | 61% |
| CN(C)CCNc1ccc2nnn3c4ccc(O)cc4c(=O)c1c23 | - | BACTEC | 12.5 µg/mL | H37Rv | inhibition | 91% |
| COc1ccc(C(=O)CSc2nnc(-c3cc(OC)c(OC)c(OC)c3)o2)cc1OC | - | BACTEC | 6.25 µg/mL | H37Rv | inhibition | 31% |
| CC(C)(C)n1cc(C(=O)O)c(=O)c2cc([N+](=O)[O-])c(N3CCC4(CC3)OCCO4)cc21 | - | - | - | ATCC35801 | MIC | 3.86 µM |
| COc1cccc(CSc2nc3ccc(C)cc3[nH]2)c1 | - | - | - | MY 332/88 | MIC | 62 µM |
| CO[C@H]1/C=C/O[C@@]2(C)Oc3c(C)c(O)c4c(O)c(c5c(c4c3C2=O)NC2(CCN(CC(C)C)CC2)N=5)=NC(=O)/C(C)=C\C=C\[C@H](C)[C@H](O)[C@@H](C)[C@@H](O)[C@@H](C)[C@H](OC(C)=O)[C@@H]1C | - | - | - | 2 isolates (Asp516Tyr) | MIC | 0.5 µg/mL |
| COc1cccc2c1C(=O)c1c(O)c3c(c(O)c1C2=O)C[C@@](O)(/C(C)=N/NC(=O)c1ccc(Cl)c(Cl)c1)C[C@H]3O[C@H]1C[C@H](N)[C@H](O)[C@H](C)O1 | - | BACTEC | 12.5 µg/mL | H37Rv | inhibition | 95% |
| CC(C)(C)n1cc(C(=O)O)c(=O)c2cc([N+](=O)[O-])c(N3CCn4cc(C(=O)O)nc4C3)cc21 | - | - | - | ATCC35801 | MIC | 0.44 µM |
| COc1cccc(C2(CSc3nnc(-c4cc(OC)c(OC)c(OC)c4)o3)OCCO2)c1 | - | BACTEC | 6.25 µg/mL | H37Rv | inhibition | 5% |
| CCCOc1ccccc1NC(=O)OCC[NH+]1CCCC1 | - | - | - | My 331/88 | MIC | 1000 µM |
| CC(C)(C)n1cc(C(=O)O)c(=O)c2cc(F)c(N3CCN(C(=O)c4ccco4)CC3)cc21 | - | - | - | ATCC35801 | MIC | 7.09 µM |
| CO[C@H]1/C=C/O[C@@]2(C)Oc3c(C)c(O)c4c(O)c(c5c(c4c3C2=O)NC2(CCN(CC(C)C)CC2)N=5)=NC(=O)/C(C)=C\C=C\[C@H](C)[C@H](O)[C@@H](C)[C@@H](O)[C@@H](C)[C@H](OC(C)=O)[C@@H]1C | - | - | - | 2230 (rifampicin-resistant) | MIC | >2 µg/mL |
| Cc1coc(NS(=O)(=O)c2ccc(N=Nc3cc(N=Nc4ccccc4)c(N)nc3N)cc2)c1C | - | BACTEC | - | H37Rv | MIC bound | >12.5 µg/mL |
| O=C(O)c1cn(C2CC2)c2cc(N3CCC(N4CCCCC4)CC3)c(F)cc2c1=O | - | - | - | ATCC35801 | MIC | 0.94 µM |
| Cc1cc(C)c2c(=O)n(CC(O)CNc3ccc4c(c3)OCO4)sc2n1 | - | - | - | H37Rv | EC50 | <12.5 µg/mL |
| CC(C)(C)OC(=O)N1CCN(c2ccc3c(c2)-n2c(nc4ccccc4c2=O)C3=O)CC1 | - | - | - | MDR 10038 | MIC | >5 µg/mL |
| COc1ccccc1Sc1nnc(N2CCN(c3nc(N4CCN(c5ccccc5)CC4)c4ccccc4n3)CC2)o1 | - | BACTEC / fluorescence | - | H37Rv | MIC | >6.25 µg/mL |
| CC(C)(C)n1cc(C(=O)O)c(=O)c2cc(F)c(N3CCC(N4CCCCC4)CC3)cc21 | - | - | - | ATCC35801 | MIC | 1.82 µM |
| c1ccc(CCCCNCCNCCc2ccccc2)cc1 | - | - | - | - | MIC | 50 µM |
| C#CCN1C(=O)c2c(C)cc(C)nc2S1(=O)=O | - | - | - | H37Rv | EC50 | >12.5 µg/mL |
| Oc1cc(O)c2c(c1)O[C@@H](c1ccc(O)c(O)c1)[C@H](O)C2 | - | BACTEC | - | H37Rv | MIC bound | >12.8 µg/mL |
| O=C(O)c1cn(C2CC2)c2cc(N3CCN(C(=O)c4ccco4)CC3)c(F)cc2c1=O | - | - | - | ATCC35801 | MIC | 3.68 µM |
| CC(N=c1cc2n(-c3ccc(Cl)cc3)c3ccccc3nc-2cc1Nc1ccc(Cl)cc1)c1ccccc1 | - | - | - | EMB-R | MIC | 0.2 µg/mL |
| C[C@]1(COc2ccc(N3CCC(Oc4ccc(OC(F)(F)F)cc4)CC3)cc2)Cn2cc([N+](=O)[O-])nc2O1 | - | - | - | 36 strains (INH-resistant) | MIC90 | 0.013 µg/mL |
| C/C=C1/C[C@@H](C)[C@](C)(O)C(=O)OC[C@@H]2[C@@H]3[C@@H](CCN3C[C@H]2O)OC1=O | - | BACTEC | 12.5 µg/mL | H37Rv | inhibition | 21% |
| O=C1c2cc(F)ccc2-n2c1nc1ncccc1c2=O | - | - | - | MDR 10038 | MIC | <0.5 µg/mL |
| O=C(NNc1ccccc1)N1CCN(c2nc(N3CCN(c4ccccc4)CC3)c3ccccc3n2)CC1 | - | BACTEC / fluorescence | 6.25 µg/mL | H37Rv | inhibition | 0% |
| Cc1cc(C)c2nc3n(c(=O)c2c1)-c1ccc(F)cc1C3=O | - | - | - | H37Rv | MIC | <0.3 µg/mL |
| Cc1ccc2nc(SCc3ccccc3[N+](=O)[O-])[nH]c2c1 | - | - | - | MY 332/88 | MIC | 62 µM |
| CC1(C)S[C@@H]2[C@H](NC(=O)[C@H](N)c3ccccc3)C(=O)N2[C@H]1C(=O)O | - | - | - | 1578 | MIC | 46 µM |
| C[n+]1c(-c2ccc(/C=N/Nc3ccnc(N/N=C/c4ccc(-c5cn6ccsc6[n+]5C)cc4)n3)cc2)cn2ccsc21.Cc1ccc(S(=O)(=O)[O-])cc1.Cc1ccc(S(=O)(=O)[O-])cc1 | - | BACTEC | 12.5 µg/mL | H37Rv | inhibition | 20% |
| C[C@H]1COc2c(N3CCN(C)CC3)c(F)cc3c(=O)c(C(=O)O)cn1c23 | - | - | - | 22 strains (rifampin- isoniazid-resistant) | MIC90 | 6.25 µg/mL |
| O=C(O)CCC(NC(=O)c1ccc(Nc2cnc3cc(C(F)(F)F)ccc3n2)cc1)C(=O)O | - | BACTEC | - | H37Rv | MIC bound | >12.5 µg/mL |
| CC[C@H]1OC(=O)[C@H](C)[C@@H](O[C@H]2C[C@@](C)(OC)[C@@H](O)[C@H](C)O2)[C@H](C)[C@@H](O[C@@H]2O[C@H](C)C[C@H](N(C)C)[C@H]2O)[C@](C)(OC)C[C@@H](C)C(=O)[C@H](C)[C@@H](O)[C@]1(C)O | - | - | - | 23 strains (rifampin- isoniazid-susceptible) | MIC50 | 25 µg/mL |
| O=C(/C(=C/c1ccccc1)Sc1nnc(-c2ccccc2)o1)c1ccccc1 | - | BACTEC | 6.25 µg/mL | H37Rv | inhibition | 30% |
| Cc1ccc2nc(SCc3ccc(Cl)c(Cl)c3)[nH]c2c1 | - | - | - | MY 332/88 | MIC | >32 µM |
| CCOC(=O)Nc1cc(F)c(F)cc1F | - | BACTEC | 12.5 µg/mL | H37Rv | inhibition | 22% |
| NNC(=O)c1ccncc1 | - | - | - | 23 strains (rifampin- isoniazid-susceptible) | MIC90 | 1.56 µg/mL |
| Cc1cc(C)c2c(=O)n(CC(N)=O)sc2n1 | - | - | 12.5 µg/mL | H37Rv | inhibition | 24% |
| O=C(NNc1ccccc1[N+](=O)[O-])N1CCN(c2nc(N3CCN(c4ccccc4)CC3)c3ccccc3n2)CC1 | - | agar / visual reading | 12.5 µg/mL | H37Rv | inhibition | 93% |
| CC(=O)C1CC(CC(=O)O)C1(C)C | - | BACTEC | - | H37Rv | MIC | ≥128 µg/mL |
| Cc1cc(C)c2c(n1)S(=O)(=O)N(CC(=O)NC1CCCCC1)/C(=C(/O)c1ccccc1)C2=O | - | - | - | H37Rv | EC50 | >12.5 µg/mL |
| CCOP(=O)(CCC(=O)[C@H]1CC[C@H]2[C@@H]3CC=C4C[C@@H](OC(C)=O)CC[C@]4(C)[C@H]3CC[C@]12C)OCC | - | resazurin | 6.25 µg/mL | H37Rv | inhibition | 2% |
| O=[N+]([O-])c1ccccc1Sc1nnc(N2CCN(c3nc(N4CCN(c5ccccc5)CC4)c4ccccc4n3)CC2)o1 | - | agar / visual reading | 12.5 µg/mL | H37Rv | inhibition | 92% |
| O=C1NC(=Nc2ccc(Cl)cc2Cl)N/C1=C\c1ccc(Cl)cc1Cl | VERO | - | - | H37Rv | EC50 | <12.5 µg/mL |
| CC(=O)C1=C(O)c2c(C)cc(C)nc2S(=O)(=O)N1C | - | - | - | H37Rv | MIC | >12.5 µg/mL |
| CCCCCCCCCOc1cccc(NC(=O)OCC[NH+]2CCCC2)c1 | - | - | - | My 331/88 | MIC | 32 µM |
| Cc1cc(N/N=C/c2ccccn2)nc2c(C)cccc12 | - | BACTEC | 12.5 µg/mL | H37Rv | inhibition | -37% |
| CSc1nnc(-c2ccccc2O)o1 | - | BACTEC | 6.25 µg/mL | H37Rv | inhibition | 30% |
| CCOC(=O)C1=CNc2c(C#N)cnn2C12C(=O)Oc1ccc(OC)cc12 | - | BACTEC | 12.5 µg/mL | H37Rv | inhibition | -19% |
| CCCCC(CC)CN1CN(CC(CC)CCCC)CC(C)(NCCNCCc2ccccc2OC)C1 | - | - | - | - | MIC | 12.5 µM |
| OC(c1cc(-c2ccccc2)nc2cc(Cl)ccc12)C1CCCCN1 | - | resazurin | 6.25 µg/mL | H37Rv | inhibition | 99% |
| CCOC(=O)CN1C(C(C)=O)=C(O)c2c(C)cc(C)nc2S1(=O)=O | - | - | - | H37Rv | EC50 | >12.5 µg/mL |

The first 5 rows once more:

smiles,cells,read by,tested at,strain or isolate,endpoint,result
Cc1[nH]nc(C(=O)N/N=C/c2cccs2)c1N=NN(C)C,VERO,BACTEC,-,H37Rv,MIC,1.6 µg/mL
COc1ccc(CNCCNCC23CC4CC(CC(C4)C2)C3)cc1OC,-,-,-,-,MIC,50 µM
COc1ccc(-c2nnc(SCC3(c4ccc(Cl)cc4)OCCO3)o2)cc1,-,BACTEC,6.25 µg/mL,H37Rv,inhibition,15%
O=C1NC(NNC(=O)c2ccncc2)=N/C1=C\c1cccc(Cl)c1,-,-,-,Ciprofloxacin-resistant,MIC,≤0.39 µg/mL
CCCCOc1cccc(NC(=O)OCC[NH+]2CCCC2)c1,-,-,-,My 331/88,MIC,125 µM